Results of unrelated studies side by side (data: NIAID ChemDB).

All rows: tests in culture; agent: Hepatitis B virus

An empty or dashed field is not shown.

Nc1nc(OCCOCP(=O)(O)O)cc(=O)[nH]1 ; read by: PCR ; cells: HEPAD79 ; read-out: EC50 ; result: 0.9 µM
COC(=O)[C@]1(C)CC[C@]2(C)CC[C@]3(C)C4=CCc5c(cc(OC)c(OC)c5C)[C@]4(C)CC[C@@]3(C)[C@@H]2C1 ; read by: ELISA / antigen ; cells: HepG2 2.2.15 ; read-out: EC50 ; result: 91 µM
Nc1ncnc2c1ncn2[C@@H]1C[C@@H](F)[C@H](CO)O1 ; cells: HepG2.2.15 ; read-out: EC50 ; result: >10 µM
Nc1ncnc2c1ncn2[C@@H]1C=C[C@H](CO)O1 ; cells: 2.2.15 ; read-out: EC50 ; result: 0.8 µM
Nc1cc(OCCOCP(=O)(O)O)ncn1 ; read by: PCR ; cells: HepAD38 ; read-out: EC50 ; result: 120 µM
COC(=O)[C@]1(C)CC[C@]2(C)CC[C@]3(C)C4=CC=C5C(=CC(=O)C(O)=C5C)[C@]4(C)CC[C@@]3(C)[C@@H]2C1 ; read by: ELISA / antigen ; cells: HepG2 2.2.15 ; read-out: EC50 ; result: 29.8 µM
CO[C@H]1O[C@@H](n2ccc(=O)[nH]c2=O)C[C@@H]1N=[N+]=[N-] ; cells: HepG2.2.15 ; read-out: EC90 ; result: >100 µM
CC(c1ccc(O)c(O)c1)N1C=NC2C(N)=NC=NC21 ; read by: ELISA / antigen ; cells: HepG2.2.15 ; read-out: EC50 ; result: 527 µM
Nc1ncnc2c1ncn2[C@@H]1C=C[C@H](CO)O1 ; cells: HepG2.2.15 ; read-out: EC50 ; result: >10 µM
Nc1nc(=O)n([C@@H]2CS[C@H](CO)O2)cc1F ; cells: 2.2.15 ; read-out: EC50 ; result: 0.04 µM
CC1=C(O)C(=O)C=C2C1=CC=C1[C@@]2(C)CC[C@@]2(C)[C@@H]3C[C@](C)(C(=O)OCc4ccccc4)CC[C@]3(C)CC[C@]12C ; read by: ELISA / antigen ; cells: HepG2 2.2.15 ; read-out: EC50 ; result: 17.3 µM
O=c1ccn([C@H]2CC[C@@H](CO)O2)c(=O)[nH]1 ; cells: HepG2.2.15 ; read-out: EC90 ; result: 92 µM
Nc1ncnc2c1ncn2CCOCP(=O)(O)O ; strain: M550I ; read-out: EC50 ; result: 2.7 µM
CC1=C(O)C(=O)C=C2C1=CC=C1[C@@]2(C)CC[C@@]2(C)[C@@H]3C[C@](C)(C(=O)OCc4ccc(C)cc4)CC[C@]3(C)CC[C@]12C ; read by: ELISA / antigen ; cells: HepG2 2.2.15 ; read-out: EC50 ; result: 10 µM
Nc1ncnc2c1ncn2CCOCP(=O)(O)O ; cells: HepG2 2.2.15 ; read-out: EC50 ; result: 1.3 µM
Nc1nc(=O)n([C@@H]2C=C[C@H](CO)O2)cc1F ; cells: 2.2.15 ; read-out: EC50 ; result: <0.1 µM
Cc1cn([C@H]2O[C@@H](CO)[C@H](O)[C@H]2F)c(=O)[nH]c1=O ; strain: WILD TYPE ; read-out: EC50 ; result: 0.83 µM
Nc1nc(N)c2ncn(CCOCP(=O)(O)O)c2n1 ; read by: PCR ; cells: HEPAD79 ; read-out: EC50 ; result: 0.5 µM
Nc1ncnc2c1ncn2[C@@H]1C[C@@H](N)[C@H](CO)O1 ; cells: 2.2.15 ; read-out: EC50 ; result: >10 µM
N#CCc1c(N)nc(N)nc1OCCOCP(=O)(O)O ; read by: PCR ; cells: HepAD38 ; read-out: EC50 ; result: >300 µM
Nc1ccnc2c1ncn2CCOCP(=O)(O)O ; cells: HB611 ; read-out: EC50 ; result: <17.4 µM
Nc1ccn([C@H]2CC[C@@H](CO)O2)c(=O)n1 ; cells: HepG2.2.15 ; read-out: EC90 ; result: 6 µM
Cc1c(N)nc(N)nc1OCCOCP(=O)(O)O ; read by: PCR ; cells: HepAD38 ; read-out: EC50 ; result: 3.2 µM
CC(C)=CC/C=C(/C)[C@H]1CC[C@]2(C)[C@@H]1[C@H](O)C[C@@H]1[C@@]3(C)CC[C@H](O)C(C)(C)[C@@H]3[C@@H](OC3OC(CO)C(O)C(O)C3O)C[C@]12C ; conditions: 4 d ; read by: PCR ; cells: HepG2.2.15 ; read-out: EC50 ; result: 5.572 µM
Nc1ncnc2c1ncn2[C@@H]1C[C@@H](F)[C@H](CO)O1 ; cells: 2.2.15 ; read-out: EC50 ; result: >10 µM
COc1ccc([C@H]2OC[C@H]3[C@@H]2CO[C@@H]3c2cc(OC)c(O)c(OC)c2)cc1O ; read by: PCR ; cells: HepG2.2.15 ; read-out: EC50 ; result: 9.38 µM
Nc1nc2c(ncn2C[C@H](CO)OCP(=O)(O)O)c(=O)[nH]1 ; cells: HB611 ; read-out: EC50 ; result: <16 µM
Nc1nc(=O)n([C@@H]2CC[C@H](CO)O2)cc1F ; cells: 2.2.15 ; read-out: EC50 ; result: 0.1 µM
COc1ccc([C@H]2OC[C@H]3[C@@H]2CO[C@@H]3c2ccc(OC)c(O)c2)cc1O ; read by: ELISA / antigen ; cells: HepG2.2.15 ; read-out: EC50 ; result: 382 µM
Nc1ccn([C@@H]2C[C@@H](F)[C@H](CO)O2)c(=O)n1 ; cells: 2.2.15 ; read-out: EC50 ; result: 0.5 µM
Nc1nc(=O)n([C@H]2CC[C@@H](CO)O2)cc1Cl ; cells: HepG2.2.15 ; read-out: EC90 ; result: >100 µM
Cc1cn([C@@H]2C[C@@H](N=[N+]=[N-])[C@H](CO)O2)c(=O)[nH]c1=O ; cells: 2.2.15 ; read-out: EC50 ; result: >10 µM
CC1=C(O)C(=O)C=C2C1=CC=C1[C@@]2(C)CC[C@@]2(C)[C@@H]3C[C@](C)(C(=O)N4CCCCC4)CC[C@]3(C)CC[C@]12C ; read by: ELISA / antigen ; cells: HepG2 2.2.15 ; read-out: EC50 ; result: 25.2 µM
Nc1ccn([C@@H]2C[C@@H](O)[C@H](CO)O2)c(=O)n1 ; cells: 2.2.15 ; read-out: EC50 ; result: 0.1 µM
Cc1nc(N)c2[nH]c(=S)n(CC(CO)OCP(=O)(O)O)c2n1 ; cells: HB611 ; read-out: EC50 ; result: 32 µM
CCOC(=O)/C=C/c1ccc(O)cc1 ; read by: ELISA / antigen ; cells: HepG2.2.15 ; read-out: EC50 ; result: 454 µM
Nc1ncnc2c1ncn2CCCCP(=O)(O)O ; cells: HB611 ; read-out: EC50 ; result: 20 µM
Nc1ncnc2c1ncn2CCOCP(=O)(O)O ; strain: Mutations L528M M552V ; cells: Huh7 ; read-out: EC50 ; result: 2.2 µM
Nc1nc(Cl)nc2c1ncn2[C@@H]1C[C@@H](O)[C@H](CO)O1 ; cells: 2.2.15 ; read-out: EC50 ; result: >10 µM
Nc1nc(=O)n([C@@H]2C[C@@H](O)[C@H](CO)O2)cc1Cl ; cells: 2.2.15 ; read-out: EC50 ; result: 10 µM
Nc1ncnc2c1ncn2[C@@H]1C[C@@H](O)[C@H](CO)O1 ; cells: 2.2.15 ; read-out: EC50 ; result: 0.1–1.9 µM
Nc1ncnc2c1ncn2[C@@H]1C[C@@H](O)[C@H](CO)O1 ; cells: HepG2.2.15 ; read-out: EC50 ; result: 0.1–1.9 µM
Nc1ccn([C@@H]2CS[C@H](CO)O2)c(=O)n1 ; read by: PCR ; cells: HEPAD79 ; read-out: EC50 ; result: 0.65 µM
Nc1nc2c(ncn2CCOCP(=O)(O)O)c(=O)[nH]1 ; cells: HB611 ; read-out: EC50 ; result: 0.25 µM
Nc1nc(=O)n([C@@H]2CC[C@H](CO)O2)cc1Cl ; cells: HepG2.2.15 ; read-out: EC50 ; result: 10 µM
Nc1nc2c(ncn2CCC(CO)CO)c(=O)[nH]1 ; strain: Mutation M550I ; cells: HepG2 ; read-out: EC50 ; result: 1217 µM
C[C@@]1(C(=O)O)CC[C@]2(C)CC[C@]3(C)C4=CC(c5c[nH]c6ccccc56)c5cc(O)c(O)cc5[C@]4(C)CC[C@@]3(C)[C@@H]2C1 ; read by: ELISA / antigen ; cells: HepG2 2.2.15 ; read-out: EC50 ; result: >100 µM

For reference, 7 entries again:

smiles	strain	conditions	read by	cells	read-out	result
COc1ccc([C@H]2OC[C@H]3[C@@H]2CO[C@@H]3c2ccc(OC)c(O)c2)cc1O			ELISA / antigen	HepG2.2.15	EC50	382 µM
Nc1cc(OCCOCP(=O)(O)O)ncn1			PCR	HepAD38	EC50	120 µM
Nc1nc(=O)n([C@@H]2CC[C@H](CO)O2)cc1Cl				HepG2.2.15	EC50	10 µM
Nc1ccnc2c1ncn2CCOCP(=O)(O)O				HB611	EC50	<17.4 µM
Nc1nc(=O)n([C@H]2CC[C@@H](CO)O2)cc1Cl				HepG2.2.15	EC90	>100 µM
N#CCc1c(N)nc(N)nc1OCCOCP(=O)(O)O			PCR	HepAD38	EC50	>300 µM
Cc1cn([C@H]2O[C@@H](CO)[C@H](O)[C@H]2F)c(=O)[nH]c1=O	WILD TYPE				EC50	0.83 µM

Neighbouring rows are from separate reports. ECn is the concentration giving n% inhibition of infection, replication or growth. Two numbers with a dash give a range or band.